Compound potency records, mixed from different reports. Data source: NIAID ChemDB in PubChem.

Common to all: tests in culture; agent: Mycobacterium avium complex

Two numbers with a dash give a range or band. A number after MIC or MFC names an inhibition level or a share of isolates. Blank or dashed fields: not listed here. Conditions beyond the fields shown may differ between rows.

SMILES | endpoint | strain | result
COc1cccc2c1nc1cccc(OC)c1[n+]2[O-] | MIC | 101 | 16 µg/mL
Cc1cc(C)nc(NS(=O)(=O)c2ccc(N)cc2)n1 | MIC | LPR | 32 µg/mL
C[C@@H]1CN(c2c(F)c(N)c3c(=O)c(C(=O)O)cn(C4CC4)c3c2F)C[C@H](C)N1 | MBC | ATCC 35718 | 8 µg/mL
O=C1c2c(Cl)cccc2-n2c1nc1ccccc1c2=O | MIC | 19075 | 5 µg/mL
NC[C@H]1O[C@H](O[C@H]2[C@H](O)[C@@H](O[C@H]3O[C@H](CO)[C@@H](O)[C@H](N)[C@H]3O)[C@H](N)C[C@@H]2N)[C@H](N)C[C@@H]1O | MBC | ATCC 35718 | >64 µg/mL
CCCNC(=O)OCCn1sc2ccccc2c1=O | MIC | ATCC 15769 | >32 µg/mL
COc1cccc(Sc2ccncc2)c1 | MIC | NJ211 | >12.8 µg/mL
NC[C@H]1O[C@H](O[C@H]2[C@H](O)[C@@H](O[C@H]3O[C@H](CO)[C@@H](O)[C@H](N)[C@H]3O)[C@H](N)C[C@@H]2N)[C@H](O)[C@@H](O)[C@@H]1O | MIC90 | 25 isolates | >64 µg/mL
COc1ccc(CSc2ccccn2)cc1 | MIC | NJ211 | >12.8 µg/mL
O=C1c2cc(F)ccc2-n2c1nc1ccc(F)cc1c2=O | MIC | 101 | ≤0.2 µg/mL
O=c1c2ccccc2sn1CCO | MIC | ISS 486 | 32 µg/mL
Cc1c(CSc2nc(=O)[nH]c3nc[nH]c23)cccc1[N+](=O)[O-] | MIC | NJ211 | >32 µg/mL
CC[C@H]1OC(=O)[C@H](C)[C@@H](O[C@H]2C[C@@](C)(OC)[C@@H](O)[C@H](C)O2)[C@H](C)[C@@H](O[C@@H]2O[C@H](C)C[C@H](N(C)C)[C@H]2O)[C@](C)(O)C[C@@H](C)/C(=N\OCOCCOC)[C@H](C)[C@@H](O)[C@]1(C)O | MIC | Isolate 91-0788 | 8 µg/mL
CC[C@H]1OC(=O)[C@H](C)[C@@H](O[C@H]2C[C@@](C)(OC)[C@@H](OC(C)=O)[C@H](C)O2)[C@H](C)[C@@H](O[C@@H]2O[C@H](C)C[C@H](N(C)C)[C@H]2OC(=O)NNCc2ccccc2)C(C)(O)C[C@@H](C)/C(=N\OCCCC2CCCCC2)[C@H](C)[C@@H](O)[C@]1(C)O | MIC | 20039 (clarithromycin-susceptible) | 0.78 µg/mL
CO[C@H]1/C=C/O[C@@]2(C)Oc3c(C)c(O)c4c(=O)c(c5oc6cc(N7CCN(CCC(C)C)CC7)cc(=O)c6nc5c4c3=C2O)NC(=O)/C(C)=C\C=C\[C@H](C)[C@H](O)[C@@H](C)[C@@H](O)[C@@H](C)[C@H](OC(C)=O)[C@@H]1C | MIC | 31F093T | 0.15 µg/mL
CCNC(=O)OCCn1sc2ccccc2c1=S | MIC | ISS 486 | 4 µg/mL
CC[C@H]1OC(=O)[C@H](C)[C@@H](O[C@H]2C[C@@](C)(OC)[C@@H](O)[C@H](C)O2)[C@H](C)[C@@H](O[C@@H]2O[C@H](C)C[C@H](N(C)C)[C@H]2O)[C@](C)(O)C[C@@H](C)/C(=N\OC)[C@H](C)[C@@H](O)[C@]1(C)O | MIC | 20039 (clarithromycin-susceptible) | 3.13 µg/mL
CO[C@H]1/C=C/O[C@@]2(C)Oc3c(C)c(O)c4c(=O)c(c5oc6cc(N7CCN(CC(C)C)CC7)cc(=O)c6nc5c4c3=C2O)NC(=O)/C(C)=C\C=C\[C@H](C)[C@H](O)[C@@H](C)[C@@H](O)[C@@H](C)[C@H](OC(C)=O)[C@@H]1C | MIC50 | - | 0.12 µg/mL
CO[C@H]1/C=C/O[C@@]2(C)Oc3c(C)c(O)c4c(=O)c(c5oc6cc(N7CCN(C)CC7)cc(=O)c6nc5c4c3=C2O)NC(=O)/C(C)=C\C=C\[C@H](C)[C@H](O)[C@@H](C)[C@@H](O)[C@@H](C)[C@H](OC(C)=O)[C@@H]1C | MIC | 31F093T | 0.035 µg/mL
CC(C)N=C(N)N(OCCCOc1cc(Cl)c(Cl)cc1Cl)C(=N)N | MIC | LPR | 32 µg/mL
CO[C@H]1/C=C/O[C@@]2(C)Oc3c(C)c(O)c4c(O)c(c5c(c4c3C2=O)NC2(CCN(CC(C)C)CC2)N=5)=NC(=O)/C(C)=C\C=C\[C@H](C)[C@H](O)[C@@H](C)[C@@H](O)[C@@H](C)[C@H](OC(C)=O)[C@@H]1C | MIC | D-3 | 0.5 µg/mL
NNC(=O)c1ccncc1 | MIC | 13039 | 0.8–1.25 µg/mL
O=C(N1CCC(CN=c2cc3n(-c4ccc(Cl)cc4)c4ccccc4nc-3cc2Nc2ccc(Cl)cc2)CC1)N1CC1 | MIC50 | 5 strains | 2 µg/mL
O=C1c2cc(F)ccc2-n2c1nc1ncccc1c2=O | MIC | 101 | 5 µg/mL
Cc1ccc(CSc2ccccn2)cc1 | MIC | NJ211 | >12.8 µg/mL
CC(=O)NC[C@H]1CN(c2ccc(N3CCN(Cc4ccc([N+](=O)[O-])o4)CC3)c(F)c2)C(=O)O1 | MIC90 | 31 isolates | 32 µg/mL
COCc1c(CNc2cc(OC)ccc2OC)cnc2nc(N)nc(N)c12 | MIC | NJ168 | >13 µg/mL
COCCN1CCN(c2cc(=O)c3nc4c(oc3c2)c2c(=O)c3c(O)c(C)c5c(c34)=C(O)[C@@](C)(O/C=C/[C@H](OC)[C@@H](C)[C@@H](OC(C)=O)[C@H](C)[C@H](O)[C@H](C)[C@@H](O)[C@@H](C)/C=C/C=C(/C)C(=O)N2)O5)CC1 | MIC | 31F093T | 0.15 µg/mL
CC[C@H]1OC(=O)[C@H](C)[C@@H](O[C@H]2C[C@@](C)(OC)[C@@H](O)[C@H](C)O2)[C@H](C)[C@@H](O[C@@H]2O[C@H](C)C[C@H](N(C)C)[C@H]2O)[C@](C)(OC)C[C@@H](C)C(=O)[C@H](C)[C@@H](O)[C@]1(C)O | MIC | MO-1 | 2 µg/mL
O=C(NCCCl)N1CCC(CN=c2cc3n(-c4ccc(Cl)cc4)c4ccccc4nc-3cc2Nc2ccc(Cl)cc2)CC1 | MIC90 | 5 strains | 2 µg/mL
Cc1c(CNc2cc(C(F)(F)F)ccc2Br)cnc2nc(N)nc(N)c12 | MIC | NJ168 | ≤0.13 µg/mL
Cc1ccc2nc3n(c(=O)c2c1)-c1ccc(F)cc1C3=O | MIC | 19075 | 1 µg/mL
CC1(C)N=C(N)N=C(N)N1OCCCOc1cc(Cl)c(Cl)cc1Cl | MIC | DW2 | 1 µg/mL
CC[C@H]1OC(=O)[C@H](C)[C@@H](OC(=O)CC2CCCCC2)[C@H](C)[C@@H](O[C@@H]2O[C@H](C)C[C@H](N(C)C)[C@H]2O)C(C)(O)C[C@@H](C)/C(=N\OCCCOc2ccccc2)[C@H](C)[C@@H](O)[C@]1(C)O | MIC | 20039 (clarithromycin-susceptible) | 3.13 µg/mL
Cc1c(CSc2cccc(Cl)c2)cnc2nc(N)nc(N)c12 | MIC | NJ3404 | ≤0.13 µg/mL
CC[C@H]1OC(=O)[C@H](C)[C@@H](O[C@H]2C[C@@](C)(OC)[C@@H](O)[C@H](C)O2)[C@H](C)[C@@H](O[C@@H]2O[C@H](C)C[C@H](N(C)C)[C@H]2O)[C@](C)(OC)C[C@@H](C)C(=O)[C@H](C)[C@@H](O)[C@]1(C)O | MIC | 20039 (clarithromycin-susceptible) | 0.78 µg/mL
CO[C@H]1/C=C/O[C@@]2(C)Oc3c(C)c(O)c4c(=O)c(c5oc6cc(N(C)CCc7ccccn7)cc(=O)c6nc5c4c3=C2O)NC(=O)/C(C)=C\C=C\[C@H](C)[C@H](O)[C@@H](C)[C@@H](O)[C@@H](C)[C@H](OC(C)=O)[C@@H]1C | MIC | 31F093T | 1.25 µg/mL
CN[C@@H]1[C@H](O[C@H]2[C@H](O[C@H]3[C@H](O)[C@@H](O)[C@H](N=C(N)N)[C@@H](O)[C@@H]3N=C(N)N)O[C@@H](C)[C@]2(O)C=O)O[C@@H](CO)[C@H](O)[C@H]1O | MIC90 | 25 isolates | 64 µg/mL
CC[C@H]1OC(=O)[C@H](C)[C@@H](O[C@H]2C[C@@](C)(OC)[C@@H](O)[C@H](C)O2)[C@H](C)[C@@H](O[C@@H]2O[C@H](C)C[C@H](N(C)C)[C@H]2O)[C@](C)(O)C[C@@H](C)C(=O)[C@H](C)[C@@H](O)[C@]1(C)O | MIC90 | 25 isolates | >8 µg/mL
CCNC(=O)OCCn1sc2ccccc2c1=O | MIC | AN3 | 16 µg/mL
Clc1ccc(Sc2nc(Cl)nc3nc[nH]c23)cc1 | MIC | NJ211 | >12.8 µg/mL
CC[C@H]1OC(=O)[C@H](C)[C@@H](O[C@H]2C[C@@](C)(OC)[C@@H](O)[C@H](C)O2)[C@H](C)[C@@H](O[C@@H]2O[C@H](C)C[C@H](N(C)C)[C@H]2O)[C@](C)(OC)C[C@@H](C)C(=O)[C@H](C)[C@@H](O)[C@]1(C)O | MIC | N-444 | 8 µg/mL
CC(C)NC(=O)OCCn1sc2ccccc2c1=O | MIC | AN1 | 16 µg/mL
COc1ccc(SCc2cnc3nc(N)nc(N)c3c2C)cc1OC | MIC | NJ3404 | ≤0.13 µg/mL
CC[C@H]1OC(=O)[C@H](C)[C@@H](O[C@H]2C[C@@](C)(OC)[C@@H](O)[C@H](C)O2)[C@H](C)[C@@H](O[C@@H]2O[C@H](C)C[C@H](N(C)C)[C@H]2O)[C@](C)(O)C[C@@H](C)CN(C)[C@H](C)[C@@H](O)[C@]1(C)O | MIC90 | 25 isolates | >8 µg/mL
COc1ccc(Sc2ncnc3nc[nH]c23)cc1 | MIC | NJ211 | >12.8 µg/mL
CC[C@H]1OC(=O)[C@H](C)[C@@H](O[C@H]2C[C@@](C)(OC)[C@@H](O)[C@H](C)O2)[C@H](C)[C@@H](O[C@@H]2O[C@H](C)C[C@H](N(C)C)[C@H]2O)[C@](C)(OC)C[C@@H](C)C(=O)[C@H](C)[C@@H](O)[C@]1(C)O | MIC90 | 25 isolates | >8 µg/mL
Cc1c(F)c(N2CCNC(C)C2)cc2c1c(=O)c(C(=O)O)cn2C1CC1 | MIC50 | - | 3.13 µg/mL
CCCCNC(=O)OCCn1sc2ccccc2c1=O | MIC | AN3 | 16 µg/mL
C[C@H]1C[C@H](N)CN1c1cc2c(cc1F)c(=O)c(C(=O)O)cn2-c1ccc(F)cc1F | MIC50 | 25 isolates | >8 µg/mL
O=C1c2cc(I)ccc2-n2c1nc1cc(Cl)cc(Cl)c1c2=O | MIC | 19075 | 1 µg/mL
CCCCNC(=O)OCCN=c1ssc2ccccc12 | MIC | AN2 | 4 µg/mL
Cc1c(CNc2cccc(Cl)c2)cnc2nc(N)nc(N)c12 | MIC | NJ168 | ≤0.13 µg/mL
CO[C@H]1/C=C/O[C@@]2(C)Oc3c(C)c(O)c4c(O)c(c(/C=N/N5CCN(C6CCCC6)CC5)c(O)c4c3C2=O)NC(=O)/C(C)=C\C=C\[C@H](C)[C@H](O)[C@@H](C)[C@@H](O)[C@@H](C)[C@H](OC(C)=O)[C@@H]1C | MIC | 101 | 0.25 µg/mL
COc1ccc(CSc2ncnc3nc[nH]c23)cc1 | MIC | NJ211 | >12.8 µg/mL
C[C@@H]1CN(c2c(F)c(N)c3c(=O)c(C(=O)O)cn(C4CC4)c3c2F)C[C@H](C)N1 | MIC | MO-1 | 0.5 µg/mL
COc1c(N2CCNC(C)C2)c(F)cc2c(=O)c(C(=O)O)cn(C3CC3)c12 | MIC | 26778 | 8 µg/mL
Cc1c(CNc2cccc3ccccc23)cnc2nc(N)nc(N)c12 | MIC | NJ3404 | ≤0.13 µg/mL
CCOC(=O)c1ccc2c(c1)C(=O)c1nc3ccccc3c(=O)n1-2 | MIC | 19075 | 1 µg/mL
OC(c1cc(C2CC3CCC2CC3)nc2c(Cl)cc(Cl)cc12)C1CCCCN1 | MIC | - | 1–2 µg/mL
CN[C@@H]1[C@@H](O)C(O[C@@H]2[C@@H](O)[C@H](OC3O[C@H](CN)[C@@H](O)[C@H](O)[C@H]3O)[C@@H](N)C[C@H]2NC(=O)[C@@H](O)CN)OC[C@]1(C)O | MIC | J11 | 50 µg/mL

A second listing of 7 rows from above:

SMILES	endpoint	strain	result
Cc1c(CSc2nc(=O)[nH]c3nc[nH]c23)cccc1[N+](=O)[O-]	MIC	NJ211	>32 µg/mL
COCc1c(CNc2cc(OC)ccc2OC)cnc2nc(N)nc(N)c12	MIC	NJ168	>13 µg/mL
NC[C@H]1O[C@H](O[C@H]2[C@H](O)[C@@H](O[C@H]3O[C@H](CO)[C@@H](O)[C@H](N)[C@H]3O)[C@H](N)C[C@@H]2N)[C@H](O)[C@@H](O)[C@@H]1O	MIC90	25 isolates	>64 µg/mL
CCOC(=O)c1ccc2c(c1)C(=O)c1nc3ccccc3c(=O)n1-2	MIC	19075	1 µg/mL
CC[C@H]1OC(=O)[C@H](C)[C@@H](O[C@H]2C[C@@](C)(OC)[C@@H](O)[C@H](C)O2)[C@H](C)[C@@H](O[C@@H]2O[C@H](C)C[C@H](N(C)C)[C@H]2O)[C@](C)(O)C[C@@H](C)/C(=N\OC)[C@H](C)[C@@H](O)[C@]1(C)O	MIC	20039 (clarithromycin-susceptible)	3.13 µg/mL
CCCCNC(=O)OCCN=c1ssc2ccccc12	MIC	AN2	4 µg/mL
CN[C@@H]1[C@H](O[C@H]2[C@H](O[C@H]3[C@H](O)[C@@H](O)[C@H](N=C(N)N)[C@@H](O)[C@@H]3N=C(N)N)O[C@@H](C)[C@]2(O)C=O)O[C@@H](CO)[C@H](O)[C@H]1O	MIC90	25 isolates	64 µg/mL